Results of unrelated studies side by side (data: NIAID ChemDB).

Common to all: enzyme or target tests; species: HIV-1; target: Reverse transcriptase; measure: IC50

ICn: concentration for n% inhibition. Two numbers with a dash give a range or band. Blank or dashed fields: not listed here. Lines come from different laboratories, so protocols vary.

smiles | strain | changes | method | result
CCN1c2ncc(CCOc3ccc(C(C)CC(=O)O)c4ccccc34)cc2C(=O)N(C)c2cccnc21 | - | RT-K103N Y181C | nucleotide incorporation / radiometric | 0.1–1 µM
CCN1c2ncc(CCOc3cccc4c3CN(C)C(=O)N4C)cc2-c2ncc(C)n2-c2cccnc21 | - | - | nucleotide incorporation / radiometric | <0.05 µM
Cc1cc(-c2ccc(C#N)cc2)cc(C)c1Oc1ccnc(S(=O)(=O)C(C)C(=O)Nc2ccc(C#N)cc2)n1 | - | - | RT activity / fluorescence | 2.606 µM
CCN1c2ncc(CCOc3ccc(-c4ccc(CC(=O)O)cc4)cc3C)cc2-c2ncc(C)n2-c2cccnc21 | - | - | nucleotide incorporation / radiometric | <0.05 µM
Cc1cc(S(N)(=O)=O)ccc1NC(=O)COc1ccccc1C(=O)c1cc(Cl)cc(C#N)c1 | NNRTI-resistant | RT-Y188L | fluorescence | 0.0238 µM
CCN1c2ncc(CCc3ccnc(C)c3)cc2C(=O)N(C)c2ccc(Cl)nc21 | WT | - | nucleotide incorporation / radiometric | <1 µM
O=c1cc(-c2ccc(O)cc2)oc2c([C@@H]3O[C@H](CO)[C@@H](O)[C@H](O)[C@H]3O)c(O)cc(O)c12 | - | - | nucleotide incorporation / radiometric | >200 µg/mL
Cc1[nH]c2ccccc2c1S(=O)(=O)c1ccccc1 | - | K103N | RT activity | >100 µM
CCNc1cccnc1N1CCN(C(=O)c2cc3ccccc3[nH]2)CC1 | IIIB | - | - | 0.85 µM
CCN1c2ncc(CCOc3ccc(CC(=O)NN)c4ccccc34)cc2C(=O)N(C)c2cccnc21 | - | RT-K103N Y181C | nucleotide incorporation / radiometric | <0.1 µM
Cc1cn(S(=O)(=O)c2ccc(C(C)(C)C)cc2)c2ccccc12 | - | K103N | RT activity | 48 µM
CC(C)(O)CCc1c(O[C@@H]2O[C@H](CO)[C@@H](O)[C@H](O)[C@H]2O)cc2c(c1O)C(=O)[C@H](O)[C@@H](c1ccc(O)c(O)c1)O2 | - | - | nucleotide incorporation / radiometric | >200 µg/mL
CO[C@H]1O[C@H](C2=NO[C@H](C[C@H]3O[C@H](CO)[C@@H](O)[C@H](O)[C@@H]3O)C2)[C@@H](O)[C@H](O)[C@H]1O | - | - | RT activity / absorbance | >50 µM
Cc1cc(C(=O)O)ccc1N=Nc1c(S(=O)(=O)O)cc2cc(NC(=O)Nc3ccc4c(O)c(N=Nc5ccc(C(=O)O)cc5C)c(S(=O)(=O)O)cc4c3)ccc2c1O | - | - | nucleotide incorporation | 0.042 µM
CCOC(=O)N1c2cccc(OCCc3cnc4c(c3)-c3nccn3-c3c(C)ccnc3N4CC)c2CS1(=O)=O | - | - | nucleotide incorporation / radiometric | <0.05 µM
Nc1ccc(S(=O)(=O)O)c2cccc(S(=O)(=O)O)c12 | - | - | RT activity | >50 µM
CO[C@H]1O[C@H](C2=NO[C@@H](C[C@H]3O[C@H](CO)[C@@H](O)[C@H](O)[C@@H]3O)C2)[C@@H](O)[C@H](O)[C@H]1O | - | - | RT activity / absorbance | >50 µM
O=C(CCCCCCCCCCC(=O)Nc1ccc(S(=O)(=O)O)c2ccccc12)Nc1ccc(S(=O)(=O)O)c2ccccc12 | - | - | RT activity | >50 µM
CCN1c2ncc(CCc3ccncc3)cc2C(=O)N(C)c2ccc(N)nc21 | - | RT-Y181C | nucleotide incorporation / radiometric | <1 µM
CCCCCCCCCCCCCCCC(=O)Oc1cc(S(=O)(=O)O)c2ccccc2c1N | - | - | RT activity | <50 µM
CCCc1cc(=O)oc2c3c(c4c(c12)OC(C)(C)C=C4)O[C@H](C)C[C@@H]3O | - | RT-Y181C | nucleotide incorporation / radiometric | 0.61 µM
N#Cc1cc(Cl)cc(Oc2c(Cl)ccc(Cc3nn(COC(=O)CCC(=O)O)c4nnccc34)c2F)c1 | - | - | nucleotide incorporation / radiometric | 0.0074 µM
Cc1occc1C(=S)Nc1ccc(Cl)c(/C=N/OC(C)(C)C)c1 | - | RT-P236L | nucleotide incorporation / radiometric | 15 µM
CCN1c2ncc(CCc3cccc4[nH]ccc34)cc2C(=O)N(C)c2ccc(Cl)nc21 | - | RT-Y181C | nucleotide incorporation / radiometric | <1 µM
C=C(C)OC(=O)N1c2cc(Cl)ccc2NC(=S)C1(C)C | D34 | - | radiometric | 0.13 µM
CC1(C)O[C@@H]2[C@H](O1)[C@H](O)O[C@@H]2C1=NO[C@H](C[C@H]2O[C@H](CO)[C@H](O)[C@H](O)[C@H]2O)C1 | - | - | RT activity / absorbance | 4.64 µM
CCN1c2ncc(CCOc3cccc4c3CS(=O)(=O)N4Cc3cc[n+]([O-])cc3)cc2-c2ncc(C)n2-c2cccnc21 | - | RT-K103N Y181C | nucleotide incorporation / radiometric | <0.05 µM
Cc1ccc(S(=O)(=O)c2c(-c3ccccc3)[nH]c3ccccc23)cc1 | - | WT | RT activity | >100 µM
Cc1cc(C)cc(S(=O)(=O)c2c(C(N)=O)[nH]c3ccc(Cl)cc23)c1 | - | RT-V106A | nucleotide incorporation / radiometric | 0.09 µM
Cc1cc(-c2ccc(C#N)cc2)cc(C)c1Oc1ccnc(S(=O)(=O)CC(=O)Nc2ccc(Cl)cc2)n1 | - | - | RT activity / fluorescence | 0.078 µM
CC(C)=CCc1c(O[C@@H]2O[C@H](CO)[C@@H](O)[C@H](O)[C@H]2O)cc2oc(-c3ccc(O)c(O)c3)c(O)c(=O)c2c1O | - | - | nucleotide incorporation / radiometric | >200 µg/mL
NC(=O)c1[nH]c2ccc(Cl)cc2c1S(=O)(=O)c1ccccc1 | WT | - | nucleotide incorporation / radiometric | 0.001 µM
C=CCO/N=C/c1cc(NC(=S)c2ccoc2C)ccc1Cl | - | RT-Y181C | nucleotide incorporation / radiometric | >50 µM
CCN1c2ncc(CCOc3ccc(NC(=O)CCC(=O)O)c4ccccc34)cc2C(=O)N(C)c2cccnc21 | - | RT-K103N Y181C | nucleotide incorporation / radiometric | 0.1–1 µM
O=C(CCCCCCCCCCC(=O)Nc1ccc(S(=O)(=O)O)c2cccc(S(=O)(=O)O)c12)Nc1ccc(S(=O)(=O)O)c2cccc(S(=O)(=O)O)c12 | - | - | RT activity | <50 µM
CC1(C)O[C@@H]2[C@H](O1)[C@H](O)O[C@@H]2C1=NO[C@H](C[C@H]2O[C@H](CO)[C@@H](O)[C@H](O)[C@@H]2O)C1 | - | - | RT activity / absorbance | >50 µM
Cc1occc1C(=S)Nc1ccc(Cl)c(C(=O)OCC2CC2)c1 | - | RT-P236L | nucleotide incorporation / radiometric | 12 µM
CCN1c2ncc(CCOc3cccc4c3CNC(=O)N4)cc2-c2nccn2-c2cccnc21 | - | - | nucleotide incorporation / radiometric | <0.05 µM
Nc1ccn([C@H]2CC[C@@H](COP(=O)(O)OP(=O)(O)OP(=O)(O)O)O2)c(=O)n1 | - | - | - | ~0.41 µM
CCN1c2ncc(CCOc3ccc(CC(=O)O)c4ccccc34)cc2C(=O)Nc2c(C)ccnc21 | - | RT-Y188L | nucleotide incorporation / radiometric | >1 µM
Cc1ccc(S(=O)(=O)n2cc(-c3cccc([N+](=O)[O-])c3)c3ccccc32)cc1 | - | K103N | RT activity | 34 µM
CCCCCCCCCCCCCCCC(=O)Nc1ccc(S(=O)(=O)O)c2ccccc12 | - | - | RT activity | >50 µM
Nc1nc(=O)n([C@@H]2CC[C@H](COP(=O)(O)OP(=O)(O)OP(=O)(O)O)O2)cc1F | - | - | - | ~1.4 µM
Cc1cc(-c2ccc(C#N)cc2)cc(C)c1Oc1ccnc(S(=O)(=O)C(C)C(=O)Nc2ccc(Cl)cc2)n1 | - | - | RT activity / fluorescence | 1.886 µM
Cc1ccc(S(=O)(=O)c2c(C)[nH]c3ccccc23)cc1 | - | K103N | RT activity | >100 µM
CCN1c2ncc(C3(c4ccccc4)CO3)cc2C(=O)N(C)c2ccc(Cl)nc21 | - | RT-Y181C | nucleotide incorporation / radiometric | <1 µM
CCCCCCCCCCCCCCCC(=O)Nc1ccc(S(=O)(=O)O)c2cccc(S(=O)(=O)O)c12 | - | - | RT activity | <50 µM
CC(C)Nc1cccnc1N1CCN(C(=O)c2cc3cc(F)ccc3[nH]2)CC1 | IIIB | - | - | 0.21 µM
Cc1cc(-c2ccc(C#N)cc2)cc(C)c1Oc1ccnc(S(=O)(=O)CC(=O)Nc2ccc(F)cc2)n1 | - | - | RT activity / fluorescence | 0.162 µM

A second listing of 5 rows from above:

smiles | strain | changes | method | result
CCN1c2ncc(CCOc3cccc4c3CN(C)C(=O)N4C)cc2-c2ncc(C)n2-c2cccnc21 | - | - | nucleotide incorporation / radiometric | <0.05 µM
Nc1ccn([C@H]2CC[C@@H](COP(=O)(O)OP(=O)(O)OP(=O)(O)O)O2)c(=O)n1 | - | - | - | ~0.41 µM
CC1(C)O[C@@H]2[C@H](O1)[C@H](O)O[C@@H]2C1=NO[C@H](C[C@H]2O[C@H](CO)[C@H](O)[C@H](O)[C@H]2O)C1 | - | - | RT activity / absorbance | 4.64 µM
CO[C@H]1O[C@H](C2=NO[C@@H](C[C@H]3O[C@H](CO)[C@@H](O)[C@H](O)[C@@H]3O)C2)[C@@H](O)[C@H](O)[C@H]1O | - | - | RT activity / absorbance | >50 µM
CCN1c2ncc(CCOc3ccc(CC(=O)O)c4ccccc34)cc2C(=O)Nc2c(C)ccnc21 | - | RT-Y188L | nucleotide incorporation / radiometric | >1 µM